Compound potency records, mixed from different reports. Data source: NIAID ChemDB in PubChem.

Shared fields: whole-cell or culture tests; agent: Mycobacterium tuberculosis

An empty or dashed field is not shown. Inhibition is in % at the dose shown (toxicity tests: loss of growth or viability). Two numbers with a dash give a range or band. MIC bound comes from a single tested concentration. Rows are shuffled and stem from different studies.

SMILES | read by | tested at | strain or isolate | read-out | value
OC1/C(=C/c2ccco2)CNC/C1=C\c1ccco1 | agar / visual reading | - | H37Rv | MIC | 12.5 µg/mL
CCCCN1C(=O)CS/C1=N\NC(=O)Cc1csc2nc(-c3ccc(Br)cc3)cn12 | - | 6.25 µg/mL | H37Rv | inhibition | 0%
COc1ccc2nc(NC(=O)CSc3nnc(-c4ccc5ncccc5c4)o3)sc2c1 | agar | - | H37Rv | MIC | 6.25 µg/mL
C=C1C(=O)O[C@@H]2[C@@H]1[C@@H](OC(=O)/C(C)=C/COC(C)=O)C[C@@]1(CO1)[C@@H]1[C@H]2C(C)=C[C@@H]1O | BACTEC | 12.5 µg/mL | H37Rv | inhibition | -8%
ON=C1/C(=C/c2ccco2)CNC/C1=C\c1ccco1 | agar / visual reading | - | H37Rv | MIC | 6.25 µg/mL
C/C=c1\[nH]c(=O)/c(=C/c2ccccc2)[nH]c1=O | BACTEC | 12.5 µg/mL | H37Rv | inhibition | -5%
Cc1ccc(C2=NN(C(=O)c3ccncc3)C(O)(C(F)(F)F)C2)cc1 | - | - | RGH101 | MIC | 8.94 µM
Cc1cccc(C)c1Nc1nc(-c2ccccc2S)cs1 | visual reading | - | H37Rv | MIC | >20 µM
Cc1cc(O)c(C(=O)/C=C/c2ccccc2)c(=O)o1 | visual reading | - | H37Rv | MIC | 8 µg/mL
CC(C)C(C(=O)Nc1ccc(C2=CC(c3ccccc3[N+](=O)[O-])C(C#N)=C(N)O2)cc1)c1ccc(Cl)cc1 | BACTEC | 6.25 µg/mL | H37Rv | inhibition | 0%
N#Cc1ccc(NC(=O)CSc2nnc(-c3ccc4ncccc4c3)o2)cc1 | agar | - | H37Rv | MIC | 100 µg/mL
CCCCSc1nnnn1-c1ccc(C)cc1 | - | - | H37Rv | MIC | 61 µM
CN1C(=O)CS/C1=N\NC(=O)Cc1csc2nc(-c3ccc(Br)cc3)cn12 | - | 6.25 µg/mL | H37Rv | inhibition | 7%
O=C(CSc1nnc(-c2ccc3ncccc3c2)o1)Nc1ccc(Br)cc1 | agar | - | H37Rv | MIC | 25 µg/mL
NNC(=O)c1ccncc1 | - | - | 5175 | MIC | 0.04–0.05 µg/mL
Nc1ccc(NC2=C(N3CCCCC3)C(=O)c3ccccc3C2=O)cc1 | visual reading | - | H37Rv | MIC | 8 µg/mL
NC[C@H]1O[C@H](O[C@H]2[C@H](O)[C@@H](O[C@H]3O[C@H](CO)[C@@H](O)[C@H](N)[C@H]3O)[C@H](N)C[C@@H]2N)[C@H](O)[C@@H](O)[C@@H]1O | - | - | - | MIC | 6 µg/mL
Clc1ccc(N=C2/C(=C/c3ccco3)CNC/C2=C\c2ccco2)cc1 | agar / visual reading | - | H37Rv | MIC | 6.25 µg/mL
Cc1cccc(C)c1Nc1nc(-c2ccccn2)cs1 | visual reading | - | H37Rv | MIC | 4.5 µM
COc1ccc2cc1Oc1ccc(cc1)C[C@@H]1c3cc(c(OC)cc3CCN1C)Oc1c(OC)c(OC)cc3c1[C@@H](C2)N(C)CC3 | BACTEC | 12.5 µg/mL | H37Rv | inhibition | 15%
C#CCn1ncc2c(SCc3ccccc3)ncnc21 | BACTEC | - | H37Rv | MIC | 12.5 µM
NCCC[C@H](N)CC(=O)N[C@H]1CNC(=O)[C@H]([C@H]2C[C@H](O)NC(N)=N2)NC(=O)/C(=C/NC(N)=O)NC(=O)[C@H](CO)NC(=O)[C@H](CO)NC1=O | - | - | - | MIC | 4 µg/mL
O=C(Nc1nc(-c2ccccn2)cs1)C1CCCCC1 | visual reading | - | H37Rv | MIC | 1.4 µM
CCSc1nnnn1-c1ccc(C)c(C)c1 | - | - | H37Rv | MIC | 250 µM
C/C=C/C/C=C/CCC(=O)[C@H]1O[C@H]1C(N)=O | - | - | Isolate H389 (MDR) | MIC | 3 µg/mL
CCN(CC)CCCC(C)Nc1cc(C)nc2cc(N(C)C)ccc12 | BACTEC | - | H37Rv | MIC bound | >12.5 µg/mL
CCCCSc1nnnn1-c1ccc(C)c(C)c1 | - | - | H37Rv | MIC | 30 µM
CC(=O)N1N=C(c2ccc(NC(=O)C(c3ccc(Cl)cc3)C(C)C)cc2)CC1c1ccc(Cl)cc1 | BACTEC | 6.25 µg/mL | H37Rv | inhibition | 0%
CO[C@H]1/C=C/O[C@@]2(C)Oc3c(C)c(O)c4c(=O)c(c5oc6cc(N7CCN(CC(C)C)CC7)cc(=O)c6nc5c4c3=C2O)NC(=O)/C(C)=C\C=C\[C@H](C)[C@H](O)[C@@H](C)[C@@H](O)[C@@H](C)[C@H](OC(C)=O)[C@@H]1C | - | - | H37Rv | MIC | 0.035 µg/mL
CO[C@H]1/C=C/O[C@@]2(C)Oc3c(C)c(O)c4c(O)c(c(/C=N/N5CCN(C6CCCC6)CC5)c(O)c4c3C2=O)NC(=O)/C(C)=C\C=C\[C@H](C)[C@H](O)[C@@H](C)[C@@H](O)[C@@H](C)[C@H](O)[C@@H]1C | - | - | Isolate 900145 drug-susceptible | MIC | 0.25 µg/mL
O=C(c1ccncc1)N1N=CCC1(O)C(F)(F)F | - | - | RGH101 | MIC | 12 µM
Cc1c(N2C[C@@H]3CCCN[C@@H]3C2)c(F)cn2c(=O)c(C(=O)O)cc(C3CC3)c12 | - | - | ATCC35801 | MIC | 0.016 µg/mL
NCC(=O)N/N=C/c1ccc([N+](=O)[O-])o1 | BACTEC | 12.5 µg/mL | H37Rv | inhibition | 99%
CC1COc2c(N3CCN(C)CC3)c(F)cc3c(=O)c(C(=O)O)cn1c23 | - | - | - | MIC | <1 µg/mL
O=S(=O)(OC1/C(=C/c2ccco2)CNC/C1=C\c1ccco1)c1ccccc1 | agar / visual reading | - | H37Rv | MIC | 3.125 µg/mL
CC1COc2c(N3CCN(C)CC3)c(F)cc3c(=O)c(C(=O)O)cn1c23 | - | - | H37Ra | MIC | 0.25 µg/mL
COc1ccc(C2CC(c3ccc(NC(=O)C(c4ccc(Cl)cc4)C(C)C)cc3)=NN2C(C)=O)cc1 | BACTEC | 6.25 µg/mL | H37Rv | inhibition | 0%
O=C(N/N=C/C=C/c1ccccc1)C(O)C(O)C(=O)N/N=C/C=C/c1ccccc1 | BACTEC | 12.5 µg/mL | H37Rv | inhibition | 4%
CNc1cc(F)cc2c1[nH]c1ccc(-c3cccc(CC(=O)O)c3)cc12 | resazurin | - | H37Rv | MIC | 2 µg/mL
Cc1cc(=O)c2ccc(Cl)c(C)c2[nH]1 | BACTEC | - | H37Rv | MIC bound | >12.5 µg/mL
O=C(Cc1csc2nc(-c3ccc(Br)cc3)cn12)NNC(=S)Nc1ccc([N+](=O)[O-])cc1 | - | - | H37Rv | MIC | >6.25 µg/mL
NN=C1/C(=C/c2ccco2)CNC/C1=C\c1ccco1 | agar / visual reading | - | H37Rv | MIC | 12.5 µg/mL
CC(=O)Nc1ccc(N=Nc2ccc(N)c3cc(S(=O)(=O)O)ccc23)cc1 | BACTEC | - | H37Rv | MIC | ≥12.5 µg/mL
O=c1[nH]c(=S)[nH]c(O)c1C=Nc1cc(Cl)ccc1O | visual reading | - | H37Rv | MIC | 4 µg/mL
Fc1ccc(N=C2/C(=C/c3ccco3)CNC/C2=C\c2ccco2)cc1F | agar / visual reading | - | H37Rv | MIC | 0.39 µg/mL
CC[C@H]1OC(=O)[C@H](C)[C@@H](O[C@H]2C[C@@](C)(OC)[C@@H](OC(C)=O)[C@H](C)O2)[C@H](C)[C@@H](O[C@@H]2O[C@H](C)C[C@H](N(C)C)[C@H]2O)C(C)(O)C[C@@H](C)/C(=N\OCCCC2CCCCC2)[C@H](C)[C@@H](O)[C@]1(C)O | - | - | 7 | MIC | 3.13 µg/mL
O=C(c1ccncc1)N1N=C(c2cccs2)CC1(O)C(F)(F)F | - | - | RGH103 | MIC | >293 µM
Nc1nc2ccc([N+](=O)[O-])cc2[nH]1 | resazurin | 6.25 µg/mL | H37Rv | inhibition | 11%
CC1=NN(C(=O)c2ccncc2)C(O)(C(F)(F)F)C1 | - | - | RGH103 | MIC | 366.3 µM
NNC(=O)Cc1ccc(Cl)c2ccccc12 | BACTEC | - | H37Rv | MIC bound | >12.5 µg/mL
CC(C)C(C(=O)Nc1ccc(C2=CC(c3ccc(N(C)C)cc3)C(C#N)=C(N)O2)cc1)c1ccc(Cl)cc1 | BACTEC | 6.25 µg/mL | H37Rv | inhibition | 0%
COc1ccc(N=C2/C(=C/c3ccco3)CNC/C2=C\c2ccco2)cc1 | agar / visual reading | - | H37Rv | MIC | 25 µg/mL
O=C(Cc1csc2nc(-c3ccc(Br)cc3)cn12)N/N=C1\SCC(=O)N1c1ccc(Br)cc1 | - | 6.25 µg/mL | H37Rv | inhibition | 0%
CCSc1nnnn1-c1cccc(C)c1 | - | - | H37Rv | MIC | 1000 µM
CO[C@H]1/C=C/O[C@@]2(C)Oc3c(C)c(O)c4c(=O)c(c5oc6cc(N7CCN(CC(C)C)CC7)cc(=O)c6nc5c4c3=C2O)NC(=O)/C(C)=C\C=C\[C@H](C)[C@H](O)[C@@H](C)[C@@H](O)[C@@H](C)[C@H](OC(C)=O)[C@@H]1C | - | - | Erdman | MIC | 0.15 µg/mL
c1ccc(-c2csc(Nc3ccncc3)n2)nc1 | visual reading | - | H37Rv | MIC | >20 µM
Nc1nc(N)c(N=Nc2ccc(Cl)cc2)c(Cl)n1 | BACTEC | 12.5 µg/mL | H37Rv | inhibition | 39%
O=C(/C=C/c1ccco1)Nc1ccc(-c2nc3ccccc3[nH]2)cc1 | visual reading | - | H37Rv | MIC | >16 µg/mL
CO[C@H]1/C=C/O[C@@]2(C)Oc3c(C)c(O)c4c(O)c(c5c(c4c3C2=O)NC2(CCN(CC(C)C)CC2)N=5)=NC(=O)/C(C)=C\C=C\[C@H](C)[C@H](O)[C@@H](C)[C@@H](O)[C@@H](C)[C@H](OC(C)=O)[C@@H]1C | - | - | 510-3 (RIF-R) | MIC | 2 µg/mL
C.C=C1C[C@@]23CCC4[C@@](C)(CCC[C@@]4(C)C(=O)NNC(=O)c4cccnc4)C2CC[C@]1(O[C@@H]1O[C@H](COC(=O)O)[C@@H](OC(=O)O)[C@H](OC(=O)O)[C@H]1OC1O[C@H](COC(C)=O)[C@@H](OC(=O)O)[C@H](OC(=O)O)[C@H]1OC(=O)O)C3 | - | - | H37Rv | MIC | 10 µg/mL
CC(=O)Nc1ccc(S(=O)(=O)/C(=C/c2ccc(Cl)o2)c2ccc([N+](=O)[O-])o2)cc1 | BACTEC | - | H37Rv | MIC | ≥12.5 µg/mL
C=C[C@@]1(C)C=C2CC[C@@H]3[C@](C)(CCC[C@@]3(C)C(=O)O)[C@H]2CC1 | resazurin | - | H37Ra | MIC | 50 µg/mL
COc1ccc(N=C2C(=Nc3ccc(OC)cc3)N(c3ccc(OC)cc3)C(=S)N2C)cc1 | BACTEC | - | H37Rv | MIC bound | >12.5 µg/mL
CO[C@H]1/C=C/O[C@@]2(C)Oc3c(C)c(O)c4c(O)c(c5c(c4c3C2=O)NC2(CCN(CC(C)C)CC2)N=5)=NC(=O)/C(C)=C\C=C\[C@H](C)[C@H](O)[C@@H](C)[C@@H](O)[C@@H](C)[C@H](OC(C)=O)[C@@H]1C | - | - | Erdman | MIC | 3 µg/mL
N/C(=N/c1nc(N)cc(=O)[nH]1)Nc1ccc(S(N)(=O)=O)cc1 | BACTEC | 12.5 µg/mL | H37Rv | inhibition | 0%
NCC[C@H](O)C(=O)N[C@@H]1C[C@H](N)[C@@H](O[C@H]2O[C@H](CN)[C@@H](O)[C@H](O)[C@H]2O)[C@H](O)[C@H]1O[C@H]1O[C@H](CO)[C@@H](O)[C@H](N)[C@H]1O | - | - | - | MIC | 1 µg/mL
NC(CCOCCP(=O)(O)CCC1C=CC=CC1)C(=O)O | BACTEC | 12.5 µg/mL | H37Rv | inhibition | 0%
COc1cc(C2C=C(c3ccc(NC(=O)C(c4ccc(Cl)cc4)C(C)C)cc3)OC(N)=C2C#N)ccc1O | BACTEC | 6.25 µg/mL | H37Rv | inhibition | 11%
CCCCCC1CC(=O)NC1C(=O)O | BACTEC | 12.5 µg/mL | H37Rv | inhibition | 17%
C.C=C1C[C@@]23CCC4[C@@](C)(CCC[C@@]4(C)C(=O)O)C2CC[C@]1(O[C@@H]1O[C@H](COC(=O)O)[C@@H](OC(=O)O)[C@H](OC(=O)O)[C@H]1OC1O[C@H](COC(C)=O)[C@@H](OC(=O)O)[C@H](OC(=O)O)[C@H]1OC(=O)O)C3 | - | - | H37Rv | MIC | 5 µg/mL
Cc1ncc([N+](=O)[O-])n1CCNC(=O)CCCn1cnc([N+](=O)[O-])n1 | resazurin | - | H37Rv | MIC bound | >6.25 µg/mL
CCOc1ccc(NC(=O)CSc2nnc(-c3ccc4ncccc4c3)o2)cc1 | agar | - | H37Rv | MIC | 12.5 µg/mL
COc1ccc(Cl)c2c1[nH]c1nc3nc4cc(Cl)ccc4n3nc12 | BACTEC | - | H37Rv | MIC bound | >12.5 µg/mL
CCNC(=S)NNC(=O)Cc1csc2nc(-c3ccc(Br)cc3)cn12 | - | - | H37Rv | MIC | >6.25 µg/mL
CC(C)CC(NC(=O)C(CS)NC(=O)CN1C(=O)CCC1=O)C(N)=O | BACTEC | 12.5 µg/mL | H37Rv | inhibition | 0%
CCOc1ccc2nc(NC(=O)CSc3nnc(-c4ccc5ncccc5c4)o3)sc2c1 | agar | - | H37Rv | MIC | 12.5 µg/mL
COc1cccc(N=Nc2c(C)nn(C(=S)S)c2C)c1 | BACTEC | - | H37Rv | MIC bound | >12.5 µg/mL
O=C(CSc1nnc(-c2ccc3ncccc3c2)o1)Nc1nc2ccc(Cl)cc2s1 | agar | - | H37Rv | MIC | 50 µg/mL

For reference, 9 entries again:

SMILES	read by	tested at	strain or isolate	read-out	value
ON=C1/C(=C/c2ccco2)CNC/C1=C\c1ccco1	agar / visual reading	-	H37Rv	MIC	6.25 µg/mL
O=C(/C=C/c1ccco1)Nc1ccc(-c2nc3ccccc3[nH]2)cc1	visual reading	-	H37Rv	MIC	>16 µg/mL
CCSc1nnnn1-c1ccc(C)c(C)c1	-	-	H37Rv	MIC	250 µM
Cc1cc(O)c(C(=O)/C=C/c2ccccc2)c(=O)o1	visual reading	-	H37Rv	MIC	8 µg/mL
Fc1ccc(N=C2/C(=C/c3ccco3)CNC/C2=C\c2ccco2)cc1F	agar / visual reading	-	H37Rv	MIC	0.39 µg/mL
CCCCN1C(=O)CS/C1=N\NC(=O)Cc1csc2nc(-c3ccc(Br)cc3)cn12	-	6.25 µg/mL	H37Rv	inhibition	0%
C#CCn1ncc2c(SCc3ccccc3)ncnc21	BACTEC	-	H37Rv	MIC	12.5 µM
NN=C1/C(=C/c2ccco2)CNC/C1=C\c1ccco1	agar / visual reading	-	H37Rv	MIC	12.5 µg/mL
CCN(CC)CCCC(C)Nc1cc(C)nc2cc(N(C)C)ccc12	BACTEC	-	H37Rv	MIC bound	>12.5 µg/mL